Target: Replicase polyprotein 1a (Severe acute respiratory syndrome-related coronavirus, UniProt P0C6U8)
Test: Inhibition of SARS coronavirus 3CLpro

SMILES | IC50 [µM]
COc1ncc(-c2ccc(N(Cc3ccsc3)C(=O)Cn3nnc4ccccc43)cc2)cn1 | 12.5
CC(C)COC(=O)Nc1ccc(N(Cc2ccsc2)C(=O)Cn2nnc3ccccc32)cc1 | 10.3

Reference: ChEMBL document CHEMBL2439951, “Discovery of N-(benzo[1,2,3]triazol-1-yl)-N-(benzyl)acetamido)phenyl) carboxamides as severe acute respiratory syndrome coronavirus (SARS-CoV) 3CLpro inhibitors: identification of ML300 and noncovalent nanomolar inhibitors with an induced-fit binding” (Bioorg Med Chem Lett, 2013)
